# In-gel DMS probing of monomeric and dimeric HIV-1 RNA

The measurements come from Ye et al. 2022 (doi:10.1038/s41594-022-00746-2).

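Randomly mutated transcripts starting with one, two or three G (1G, 2G, 3G), capped or uncapped, were folded for 30 min at 37 °C. High salt was 300 mM KCl and 5 mM MgCl2, low salt 40 mM KCl and 0.1 mM MgCl2; monomer and dimer were parted on a native gel. Each band was probed in the gel with DMS (170 mM, 15 min, 37 °C), with ethanol as control, and sequenced.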

The 5' region of HIV-1 NL4-3 RNA (positions 1-437):
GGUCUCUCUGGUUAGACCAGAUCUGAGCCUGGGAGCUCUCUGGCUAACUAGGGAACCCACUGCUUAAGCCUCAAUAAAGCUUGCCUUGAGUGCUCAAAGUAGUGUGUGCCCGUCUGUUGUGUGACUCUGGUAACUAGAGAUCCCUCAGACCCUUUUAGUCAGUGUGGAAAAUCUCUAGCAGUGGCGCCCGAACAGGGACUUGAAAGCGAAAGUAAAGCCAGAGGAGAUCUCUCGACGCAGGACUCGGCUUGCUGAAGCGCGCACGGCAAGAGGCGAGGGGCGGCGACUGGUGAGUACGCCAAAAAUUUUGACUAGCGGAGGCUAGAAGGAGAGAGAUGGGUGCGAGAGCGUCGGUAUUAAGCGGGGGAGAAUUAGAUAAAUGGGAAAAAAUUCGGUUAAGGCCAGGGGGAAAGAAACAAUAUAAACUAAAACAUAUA

Scale: normalised reactivity, A and C only; low values point to paired or protected bases, higher values to unpaired ones.
One numbering serves 1G, 2G and 3G.
A position is written with its base.

{"position": "A227", "domain": "CU", "3G uncapped high-salt dimer": 0.28, "1G capped low-salt monomer": 0.27, "2G capped low-salt monomer": 0.27}
{"position": "C70", "domain": "PolyA", "3G uncapped high-salt dimer": 0.07, "1G capped low-salt monomer": 0.04, "2G capped low-salt monomer": 0.03}
{"position": "C284", "domain": "SL2", "3G uncapped high-salt dimer": 0.15, "1G capped low-salt monomer": 0.20, "2G capped low-salt monomer": 0.24}
{"position": "A225", "domain": "none", "3G uncapped high-salt dimer": 0.79, "1G capped low-salt monomer": 0.71, "2G capped low-salt monomer": 0.76}
{"position": "C299", "domain": "SL2", "3G uncapped high-salt dimer": 0.09, "1G capped low-salt monomer": 0.06, "2G capped low-salt monomer": 0.06}
{"position": "A101", "domain": "PolyA", "3G uncapped high-salt dimer": 0.27, "1G capped low-salt monomer": 0.20, "2G capped low-salt monomer": 0.18}
{"position": "C38", "domain": "TAR", "3G uncapped high-salt dimer": 0.03, "1G capped low-salt monomer": 0.04, "2G capped low-salt monomer": 0.03}
{"position": "A203", "domain": "PBS", "3G uncapped high-salt dimer": 0.46, "1G capped low-salt monomer": 0.50, "2G capped low-salt monomer": 0.48}
{"position": "C274", "domain": "SL1", "3G uncapped high-salt dimer": 0.27, "1G capped low-salt monomer": 0.67, "2G capped low-salt monomer": 0.67}
{"position": "C312", "domain": "SL3", "3G uncapped high-salt dimer": 0.09, "1G capped low-salt monomer": 0.10, "2G capped low-salt monomer": 0.12}
{"position": "C60", "domain": "PolyA", "3G uncapped high-salt dimer": 0.56, "1G capped low-salt monomer": 0.24, "2G capped low-salt monomer": 0.38}
{"position": "A371", "domain": "none", "3G uncapped high-salt dimer": 0.94, "1G capped low-salt monomer": 0.92, "2G capped low-salt monomer": 0.94}
{"position": "A334", "domain": "AUG", "3G uncapped high-salt dimer": 0.36, "1G capped low-salt monomer": 0.50, "2G capped low-salt monomer": 0.48}
{"position": "C188", "domain": "PBS", "3G uncapped high-salt dimer": 0.05, "1G capped low-salt monomer": 0.08, "2G capped low-salt monomer": 0.06}
{"position": "C267", "domain": "SL1", "3G uncapped high-salt dimer": 0.06, "1G capped low-salt monomer": 0.19, "2G capped low-salt monomer": 0.17}
{"position": "C231", "domain": "CU", "3G uncapped high-salt dimer": 0.14, "1G capped low-salt monomer": 0.16, "2G capped low-salt monomer": 0.17}
{"position": "A276", "domain": "SL1", "3G uncapped high-salt dimer": 0.40, "1G capped low-salt monomer": 1.00, "2G capped low-salt monomer": 1.01}
{"position": "C146", "domain": "PBS", "3G uncapped high-salt dimer": 0.10, "1G capped low-salt monomer": 0.11, "2G capped low-salt monomer": 0.13}
{"position": "A210", "domain": "PBS", "3G uncapped high-salt dimer": 0.39, "1G capped low-salt monomer": 0.57, "2G capped low-salt monomer": 0.55}
{"position": "A414", "domain": "none", "3G uncapped high-salt dimer": 0.43, "1G capped low-salt monomer": 0.48, "2G capped low-salt monomer": 0.45}

The opening 2 entries, copied out:

A227 (domain CU) gave 3G uncapped high-salt dimer 0.28; 1G capped low-salt monomer 0.27; 2G capped low-salt monomer 0.27.
C70 (domain PolyA) gave 3G uncapped high-salt dimer 0.07; 1G capped low-salt monomer 0.04; 2G capped low-salt monomer 0.03.